PubChem BioAssay AID504811 – Drosophila RNAi Screening Center – 2011
The reagents shown are a selection, not the whole library. 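Only hits are listed, without non-hit dsRNAs or numeric scores; replicate 2 has entries for just two rows.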 Entries without a mark were called inactive. The numbers tell different reagents against one gene apart. Names joined by + are all predicted targets of the reagent. The record does not give: the amount of reagent, the time to read-out.

- Test: 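Drosophila host factors required for Listeria to grow inside cells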 (primary screen)
- Cell system: Drosophila SL2 cells
- Knock-down reagent: long dsRNA against Drosophila genes
- Treatment: infection with GFP-expressing Listeria monocytogenes; dose and duration not given
- Detection: 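Microscopy of GFP-labelled Listeria in infected cells, with each well visually classed as down, up or spots relative to controls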
- Active means: 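a dsRNA counts as a hit when bacterial fluorescence is plainly weaker, stronger or dotted in clusters relative to control wells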
- Calls: active = hit; inactive = not a hit

predicted target,dsRNA no.,"infection phenotype, replicate 1","infection phenotype, replicate 2"
TfIIB,1,less bacterial GFP than control wells (fewer infected cells or weaker signal per cell) (active),
thr,1,less bacterial GFP than control wells (fewer infected cells or weaker signal per cell) (active),
Pp4-19C,1,less bacterial GFP than control wells (fewer infected cells or weaker signal per cell) (active),
zetaCOP,1,less bacterial GFP than control wells (fewer infected cells or weaker signal per cell) (active),
RnrS,1,stronger bacterial GFP per infected cell than controls (active),
Syb,1,less bacterial GFP than control wells (fewer infected cells or weaker signal per cell) (active),
garz,1,less bacterial GFP than control wells (fewer infected cells or weaker signal per cell) (active),
CkIIbeta,1,bacterial GFP seen as punctate clusters; pointing to bacteria failing to leave the vacuole (active),
Sf3b1,1,less bacterial GFP than control wells (fewer infected cells or weaker signal per cell) (active),
Brr2,1,less bacterial GFP than control wells (fewer infected cells or weaker signal per cell) (active),
alphaSnap,1,less bacterial GFP than control wells (fewer infected cells or weaker signal per cell) (active),
hyx,1,less bacterial GFP than control wells (fewer infected cells or weaker signal per cell) (active),
Lam,1,less bacterial GFP than control wells (fewer infected cells or weaker signal per cell) (active),
Act5C,1,less bacterial GFP than control wells (fewer infected cells or weaker signal per cell) (active),
Sumo,1,less bacterial GFP than control wells (fewer infected cells or weaker signal per cell) (active),
pic,1,less bacterial GFP than control wells (fewer infected cells or weaker signal per cell) (active),
AdoR,1,less bacterial GFP than control wells (fewer infected cells or weaker signal per cell) (active),
RpL39,1,stronger bacterial GFP per infected cell than controls (active),
zfh1,1,less bacterial GFP than control wells (fewer infected cells or weaker signal per cell) (active),
RpS18,1,stronger bacterial GFP per infected cell than controls (active),
RpLP1,1,stronger bacterial GFP per infected cell than controls (active),
pea,1,less bacterial GFP than control wells (fewer infected cells or weaker signal per cell) (active),
Ald1,1,stronger bacterial GFP per infected cell than controls (active),
RpS10b,1,stronger bacterial GFP per infected cell than controls (active),
RpS15,1,stronger bacterial GFP per infected cell than controls (active),
CG8435,1,less bacterial GFP than control wells (fewer infected cells or weaker signal per cell) (active),
tsr,1,less bacterial GFP than control wells (fewer infected cells or weaker signal per cell) (active),
Spc105R,1,less bacterial GFP than control wells (fewer infected cells or weaker signal per cell) (active),
CycE,1,stronger bacterial GFP per infected cell than controls (active),
CycE,2,stronger bacterial GFP per infected cell than controls (active),
His3:CG33818 + His3:CG33857 + His3:CG33806 + 20 more,1,stronger bacterial GFP per infected cell than controls (active),
Diap1,1,less bacterial GFP than control wells (fewer infected cells or weaker signal per cell) (active),
RpS4,1,stronger bacterial GFP per infected cell than controls (active),
eIF2gamma,1,stronger bacterial GFP per infected cell than controls (active),
nej,1,less bacterial GFP than control wells (fewer infected cells or weaker signal per cell) (active),
nej,2,less bacterial GFP than control wells (fewer infected cells or weaker signal per cell) (active),
RpS5a,1,stronger bacterial GFP per infected cell than controls (active),
raw,1,less bacterial GFP than control wells (fewer infected cells or weaker signal per cell) (active),
raw,2,less bacterial GFP than control wells (fewer infected cells or weaker signal per cell) (active),
COX7C,1,stronger bacterial GFP per infected cell than controls (active),
RpS28b,1,stronger bacterial GFP per infected cell than controls (active),
Polr2A,1,less bacterial GFP than control wells (fewer infected cells or weaker signal per cell) (active),
RpL26,1,stronger bacterial GFP per infected cell than controls (active),
Abi,1,less bacterial GFP than control wells (fewer infected cells or weaker signal per cell) (active),
Act57B,1,less bacterial GFP than control wells (fewer infected cells or weaker signal per cell) (active),
Syx7,1,less bacterial GFP than control wells (fewer infected cells or weaker signal per cell) (active),
Lpt,1,less bacterial GFP than control wells (fewer infected cells or weaker signal per cell) (active),
dpr6,1,bacterial GFP seen as punctate clusters; pointing to bacteria failing to leave the vacuole (active),
eater,1,less bacterial GFP than control wells (fewer infected cells or weaker signal per cell) (active),
Rpn10,1,less bacterial GFP than control wells (fewer infected cells or weaker signal per cell) (active),
Rpn8,1,less bacterial GFP than control wells (fewer infected cells or weaker signal per cell) (active),
RpL19,1,stronger bacterial GFP per infected cell than controls (active),
RpS19a,1,stronger bacterial GFP per infected cell than controls (active),
Rpn3,1,less bacterial GFP than control wells (fewer infected cells or weaker signal per cell) (active),
mts,1,less bacterial GFP than control wells (fewer infected cells or weaker signal per cell) (active),
RpL17,1,stronger bacterial GFP per infected cell than controls (active),
Fad2,1,less bacterial GFP than control wells (fewer infected cells or weaker signal per cell) (active),
Rab5,1,less bacterial GFP than control wells (fewer infected cells or weaker signal per cell) (active),
Ocrl,1,less bacterial GFP than control wells (fewer infected cells or weaker signal per cell) (active),
CG11779,1,stronger bacterial GFP per infected cell than controls (active),
alphaTub84B,1,less bacterial GFP than control wells (fewer infected cells or weaker signal per cell) (active),
Cdk12,1,less bacterial GFP than control wells (fewer infected cells or weaker signal per cell) (active),
BckdhA,1,less bacterial GFP than control wells (fewer infected cells or weaker signal per cell) (active),
Nep6,1,less bacterial GFP than control wells (fewer infected cells or weaker signal per cell) (active),
RpL40,1,stronger bacterial GFP per infected cell than controls (active),
shn,1,less bacterial GFP than control wells (fewer infected cells or weaker signal per cell) (active),
chic,1,less bacterial GFP than control wells (fewer infected cells or weaker signal per cell) (active),
Cyfip,1,less bacterial GFP than control wells (fewer infected cells or weaker signal per cell) (active),
Prosbeta4,1,less bacterial GFP than control wells (fewer infected cells or weaker signal per cell) (active),
CkIalpha,1,less bacterial GFP than control wells (fewer infected cells or weaker signal per cell) (active),
Rab11,1,less bacterial GFP than control wells (fewer infected cells or weaker signal per cell) (active),
RpS16,1,stronger bacterial GFP per infected cell than controls (active),
CG30349,1,less bacterial GFP than control wells (fewer infected cells or weaker signal per cell) (active),
Cenp-C,1,less bacterial GFP than control wells (fewer infected cells or weaker signal per cell) (active),
Nup98-96,1,stronger bacterial GFP per infected cell than controls (active),
RpS26,1,stronger bacterial GFP per infected cell than controls (active),
SmE,1,less bacterial GFP than control wells (fewer infected cells or weaker signal per cell) (active),
Arp3,1,less bacterial GFP than control wells (fewer infected cells or weaker signal per cell) (active),
Cdk1,1,stronger bacterial GFP per infected cell than controls (active),
gammaCOP,1,less bacterial GFP than control wells (fewer infected cells or weaker signal per cell) (active),
His2B:CG33870 + His2B:CG33868 + His2B:CG33882 + 21 more,1,stronger bacterial GFP per infected cell than controls (active),
SmD3,1,stronger bacterial GFP per infected cell than controls (active),
Pomp,1,less bacterial GFP than control wells (fewer infected cells or weaker signal per cell) (active),
RpL7,1,stronger bacterial GFP per infected cell than controls (active),
Sec61beta,1,less bacterial GFP than control wells (fewer infected cells or weaker signal per cell) (active),
Vps28,1,less bacterial GFP than control wells (fewer infected cells or weaker signal per cell) (active),
Nxt1,1,less bacterial GFP than control wells (fewer infected cells or weaker signal per cell) (active),
klg,1,bacterial GFP seen as punctate clusters; pointing to bacteria failing to leave the vacuole (active),
betaTub56D,1,less bacterial GFP than control wells (fewer infected cells or weaker signal per cell) (active),
cpa,1,less bacterial GFP than control wells (fewer infected cells or weaker signal per cell) (active),
Prosalpha2,1,less bacterial GFP than control wells (fewer infected cells or weaker signal per cell) (active),
Slu7,1,stronger bacterial GFP per infected cell than controls (active),
Rpt1,1,less bacterial GFP than control wells (fewer infected cells or weaker signal per cell) (active),
CG43736 + CG33692 (retired record),1,less bacterial GFP than control wells (fewer infected cells or weaker signal per cell) (active),
His4r,1,stronger bacterial GFP per infected cell than controls (active),
pav,1,stronger bacterial GFP per infected cell than controls (active),
RpL23,1,stronger bacterial GFP per infected cell than controls (active),
Npc1a,1,bacterial GFP seen as punctate clusters; pointing to bacteria failing to leave the vacuole (active),
Slh,1,less bacterial GFP than control wells (fewer infected cells or weaker signal per cell) (active),
RpS14a,1,stronger bacterial GFP per infected cell than controls (active),
RpL8,1,stronger bacterial GFP per infected cell than controls (active),
RpL8,2,stronger bacterial GFP per infected cell than controls (active),
RpS21,1,stronger bacterial GFP per infected cell than controls (active),
Cdc5,1,less bacterial GFP than control wells (fewer infected cells or weaker signal per cell) (active),
RpL32,1,stronger bacterial GFP per infected cell than controls (active),stronger bacterial GFP per infected cell than controls
Spx,1,stronger bacterial GFP per infected cell than controls (active),
Acp29AB,1,bacterial GFP seen as punctate clusters; pointing to bacteria failing to leave the vacuole (active),
Arpc4,1,less bacterial GFP than control wells (fewer infected cells or weaker signal per cell) (active),
Rpt3,1,less bacterial GFP than control wells (fewer infected cells or weaker signal per cell) (active),
